Reference: article PMC3366674, “Epigenetic Tailoring for the Production of Anti-Infective Cytosporones from the Marine Fungus Leucostoma persoonii” (Marine Drugs, 2012)

Columns and labels:
[1] = tested on: Plasmodium falciparum; assay: Malaria assay (luciferase-reporter Plasmodium falciparum); type: cell-based; conditions: 90% inhibition therapeutic index
Procedure: Mangrove endophytes isolated as described above were subject to small-scale cultivation on Sabouraud dextrose agar (SDA), freeze dried, then extracted with methanol. Extracts at a concentration of 30 mg/mL were screened in a luciferase-reporter Plasmodium falciparum assay.
Malaria screening was done as previously reported.

[2] = tested on: methicillin-resistant Staphylococcus aureus (MRSA) USA100; assay: Microtiter MIC determination against MRSA USA100; type: cell-based; conditions: selectivity for bacteria relative to mammalian cells
Procedure: The strain of MRSA used in our bioassays is a hospital-associated clone from the CDC USA 100 lineage. […] It is thus deemed an extensively drug resistant strain, and something of a worst-case scenario MRSA isolate.
The minimum inhibitory concentration (MIC) of the pure compounds was determined as follows. Broth cultures were prepared for S. aureus strains as described above. These were diluted 1:1000 in fresh Trypticase Soy Broth (TSB) and 200 µL was applied to the wells of a sterile 96-well plate. Compounds (in DMSO) were added to wells at concentrations ranging from 1, 10, 25, 50 to 100 µg/mL in a volume no greater than 5 µL. Concentrations were adjusted to lower levels if applicable. Samples were mixed by pipetting and the plates were incubated at 37 °C overnight. MICs were determined by visual inspection for the minimum concentration of compound producing no bacterial growth, as determined by a lack of turbidity. Assays were repeated three times in order to verify the MIC determinations. […] These were incubated overnight at 37 °C and the bacterial loads of each well were determined by enumeration. Percentage killing was determined by the comparison of drug-containing wells to control wells where no compound was added.

SMILES: CCCCCCCC1OC(=O)c2cc(O)c(O)c(O)c21 (stereo not shown) [Cytosporone E, cytosporone E]
- TI90 = IC90 A549/IC90 P. falciparum [1]: 33
- TI90 = IC90 A549/IC90 P. falciparum ([1]; listed as Cytosporone E (3)): > 10
- TI90 = IC90 A549/MIC90 (MRSA) ([2]; listed as Cytosporone E (3)): > 10

SMILES: CCCCCCCC(=O)c1c(O)cc(O)cc1CC(=O)OCC [Cytosporone B, cytosporone B]
- TI90 = IC90 A549/MIC90 (MRSA) [2]: 6
